According to patent US20150038408A1, “Polypeptides for treating and/or limiting influenza infection” (University of Washington, published 2015):

Target: A/Vietnam/1203/2004 (H5N1) hemagglutinin ectodomain (Influenza A virus A/Vietnam/1203/2004 …)

B1: HB80.3 (Asp12Gly, Ala24Ser, Met26Thr, Asn36Lys, Delta54-95) (designed binder)
chain: MASTRGSGRPWGFSENLAFELALSFTNKDTPDRWAKVAQYVSGRTPEEVKKHYE
With B1 the “EC50 (read off the curve)” value was ~10 nM.
